Experimental data from PMC10707942, “Polyaromatic Bis(indolyl)methane Derivatives with Antiproliferative and Antiparasitic Activity” (Molecules, 2023).

What was measured:
MRC-5 cells = experiment: Fluorescence microscopy, overlap with MitoTracker in MRC-5 cells; format: cell-based, human; conditions: 5 μM
T. brucei parasites = experiment: Fluorescence microscopy, overlap with nuclear dye in T. brucei parasites; format: cell-based, Trypanosoma brucei; conditions: 5 μM

Q: c1ccc(N(c2ccccc2)c2ccc(C(c3c[nH]c4ccccc34)c3c[nH]c4ccccc34)cc2)cc1 [Compound 2a] was tested. Which “Pearson's correlation coefficient (PCC), overlap with MitoTracker” value (MRC-5 cells; 30 min incubation) did it give?
A: 0.83 ± 0.05

Q: And the “Pearson's correlation coefficient (PCC), overlap with MitoTracker” value (MRC-5 cells; 2 h incubation)?
A: 0.95 ± 0.06

Q: And the “Pearson's correlation coefficient (PCC), overlap with nuclear dye” value (T. brucei parasites; 30 min incubation)?
A: 0.66 ± 0.19

Q: What about the “Pearson's correlation coefficient (PCC), overlap with nuclear dye” value (T. brucei parasites; 1 h incubation) of the same compound?
A: 0.82 ± 0.08

Q: And the “Pearson's correlation coefficient (PCC), overlap with nuclear dye” value (T. brucei parasites; 2 h incubation)?
A: 0.85 ± 0.08
